From ChEMBL document CHEMBL6178023 (J Med Chem, 2025)

How the values were obtained:
[1] = Cytotoxicity against human NHDF cells infected with CHIKV assessed as cell viability at 0.01 to 100 uM incubated with cells for 1 hr followed by viral infection for 2 hrs and subsequent replacement of fresh media with compound measured after 24 hrs post-infection by Cell Titer Glo assay; settings: 25 h
[2] = tested on: Venezuelan equine encephalitis virus; assay: Anti-viral activity against VEEV infected in human NHDF cells assessed as log reduction in viral titer at 0.01 to 100 uM incubated with cells for 1 hr followed by viral infection for 2 hrs and subsequent replacement of fresh media with compound measured after 24 hrs post-infection by extracting viral supernatant from cells and transferring supernatant to African geen monkey Vero cells for measurin; settings: dose 0.01-100 µM; time 25 hrs
[3] = Cytotoxicity against human NHDF cells infected with VEEV assessed as cell viability at 0.01 to 100 uM incubated with cells for 1 hr followed by viral infection for 2 hrs and subsequent replacement of fresh media with compound measured after 24 hrs post-infection by Cell Titer Glo assay; settings: 25 h
[4] = Cytotoxicity against human NHDF cells infected with MAYV assessed as cell viability at 0.01 to 100 uM incubated with cells for 1 hr followed by viral infection for 2 hrs and subsequent replacement of fresh media with compound measured after 24 hrs post-infection by Cell Titer Glo assay; settings: 25 h

In the case of `O=C(N1CCC2(CC1)CC(CN1CCCCS1(=O)=O)CCO2)C1(c2ccccc2)CCCC1` (centres undefined), the Activity [1] is reported as “Non-toxic”, the Activity [2] is reported as 0.01 10^5No_unit and the Activity [3] is reported as “Non-toxic”. The Activity [4] was “Non-toxic”.
